PubChem BioAssay AID1224833 | University of Georgia – 2016

Test: 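Host factors restraining rotavirus as candidate antiviral genes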 (primary screen)
Cell system: monkey MA104 kidney cells
Reagent: siRNA pool against human genes, 50 nM
Time to read-out: 48 h knock-down before infection; read 24 h after infection
Conditions: infection with rotavirus strain RV3 two days after transfection; infectious dose for this stage not given
Measured: 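Rotavirus antigen per well by fluorescent immunoassay, normalised to non-targeting control wells on each plate and given as a standard z-score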
Direction: z-score vs non-targeting control: higher = more rotavirus replication than with non-targeting control
Call rule: In these data the active calls have z-score vs non-targeting control at about -1 or lower, or at about 1 or higher
Calls: active = z-score beyond 1 either way; inactive = z-score within 1 of zero
Here is a random part of about 12,000 reagents. Over the whole deposit, about 5,600 (46%) are marked active. 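Active calls cover z-scores past 1 in both directions, so they include lowered as well as raised rotavirus replication.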 Unmarked entries are inactive.

After knock-down of CGNL1 (cingulin like 1), the record shows z-score vs non-targeting control -0.534.
CNTROB gave z-score vs non-targeting control -0.218.
Depletion of OR2W1 (olfactory receptor family 2 subfamily W member 1) came out at: z-score vs non-targeting control -0.275.
PITX2 (paired like homeodomain 2) scored z-score vs non-targeting control 1.8 (active).
With knock-down of DDX24 (DEAD-box helicase 24), the screen gave z-score vs non-targeting control 1.55 (active).
SCARA5 (scavenger receptor class A member 5) scored z-score vs non-targeting control -1.32 (active).
Depletion of FGF11 (fibroblast growth factor 11) resulted in: z-score vs non-targeting control 2.62 (active).
Against SMIM14 (small integral membrane protein 14) the deposit lists z-score vs non-targeting control -1.83 (active).
SCG5 (secretogranin V) scored z-score vs non-targeting control -0.577.
For PPP1R9B (protein phosphatase 1 regulatory subunit 9B), the entry reads z-score vs non-targeting control 0.153.
Depletion of EGFL8 (EGF like domain multiple 8) resulted in: z-score vs non-targeting control -0.794.
With knock-down of GYS1 (glycogen synthase 1), the record shows z-score vs non-targeting control -1.25 (active).
AZIN2 (antizyme inhibitor 2) showed z-score vs non-targeting control -2.04 (active).
Silencing of MAGEA6 (MAGE family member A6) came out at: z-score vs non-targeting control -2.68 (active).
DSC2 (desmocollin 2) gave z-score vs non-targeting control -0.353.
Knock-down of SEMA3D (semaphorin 3D) came out at: z-score vs non-targeting control -1.2 (active).
Knock-down of TBX10 (T-box transcription factor 10) came out at: z-score vs non-targeting control 0.528.
With knock-down of SMAD1 (SMAD family member 1), the record shows z-score vs non-targeting control -1.25 (active).
Silencing of ZFYVE1 (zinc finger FYVE-type containing 1) gave: z-score vs non-targeting control 0.886.
Against RSRP1 (arginine and serine rich protein 1) the deposit lists z-score vs non-targeting control 0.882.
C20orf144 (chromosome 20 open reading frame 144) showed z-score vs non-targeting control -1.44 (active).
BLVRB (biliverdin reductase B) scored z-score vs non-targeting control 1.12 (active).
For OAT (ornithine aminotransferase), the values are z-score vs non-targeting control -1.52 (active).
CPNE4 (copine 4) gave z-score vs non-targeting control -0.365.
Knock-down of LARGE2 (LARGE xylosyl- and glucuronyltransferase 2) gave: z-score vs non-targeting control 0.638.
Depletion of PCDHGA12 (protocadherin gamma subfamily A, 12) resulted in: z-score vs non-targeting control 0.356.
For OR10A3 (olfactory receptor family 10 subfamily A member 3), the values are z-score vs non-targeting control -0.596.
After knock-down of HTN3 (histatin 3), the record shows z-score vs non-targeting control -0.895.
Against UCMA (upper zone of growth plate and cartilage matrix associated), the values are z-score vs non-targeting control 1.28 (active).
For GBA3 (glucosylceramidase beta 3 (gene/pseudogene)) the deposit lists z-score vs non-targeting control -1.01 (active).
With knock-down of DNAH7 (dynein axonemal heavy chain 7) the results were z-score vs non-targeting control -2.34 (active).
Depletion of UNC80 (unc-80 subunit of NALCN channel complex) came out at: z-score vs non-targeting control 0.0728.
ABCB11 (ATP binding cassette subfamily B member 11) scored z-score vs non-targeting control -0.971.
After knock-down of AASS (aminoadipate-semialdehyde synthase) the results were z-score vs non-targeting control 0.82.
Depletion of PDE6B (phosphodiesterase 6B) resulted in: z-score vs non-targeting control -1.28 (active).
Silencing of MICB (MHC class I polypeptide-related sequence B) came out at: z-score vs non-targeting control -0.633.
Silencing of REPIN1 (replication initiator 1) gave: z-score vs non-targeting control -1.65 (active).
With knock-down of DISP2 (dispatched RND transporter family member 2), the record shows z-score vs non-targeting control 1.54 (active).
For LYRM7 (LYR motif containing 7), the values are z-score vs non-targeting control -0.836.
POU1F1 (POU class 1 homeobox 1) gave z-score vs non-targeting control -1.19 (active).
Against MADD (MAP kinase activating death domain), the values are z-score vs non-targeting control -1.05 (active).
NPAS1 (neuronal PAS domain protein 1) scored z-score vs non-targeting control -0.523.
ELOVL2 (ELOVL fatty acid elongase 2) gave z-score vs non-targeting control 0.268.
ZNF136 (zinc finger protein 136) scored z-score vs non-targeting control 0.723.
For KLK5 (kallikrein related peptidase 5), the values are z-score vs non-targeting control -1.97 (active).
Silencing of SPIN1 (spindlin 1) resulted in: z-score vs non-targeting control -0.911.
After knock-down of KIF27 (kinesin family member 27), the record shows z-score vs non-targeting control 0.822.
Depletion of SWT1 (SWT1 RNA endoribonuclease homolog) came out at: z-score vs non-targeting control -1.07 (active).
Knock-down of CRLS1 (cardiolipin synthase 1) came out at: z-score vs non-targeting control -1.08 (active).
KASH5 (KASH domain containing 5) gave z-score vs non-targeting control -1.05 (active).
Silencing of MUC16 (mucin 16, cell surface associated) gave: z-score vs non-targeting control -2.71 (active).
With knock-down of CSMD1 (CUB and Sushi multiple domains 1) the results were z-score vs non-targeting control -0.123.
Silencing of GPATCH2L (G-patch domain containing 2 like) gave: z-score vs non-targeting control -0.648.
TIMM17B (translocase of inner mitochondrial membrane 17B) gave z-score vs non-targeting control 1.66 (active).
BEX1 (brain expressed X-linked 1) gave z-score vs non-targeting control -0.75.
Depletion of DOP1B (DOP1 leucine zipper like protein B) gave: z-score vs non-targeting control 0.637.
FARSA (phenylalanyl-tRNA synthetase subunit alpha) scored z-score vs non-targeting control -0.86.
Against SLC2A14 the deposit lists z-score vs non-targeting control -1.24 (active).
With knock-down of UGT1A6 (UDP glucuronosyltransferase family 1 member A6), the screen gave z-score vs non-targeting control 1.52 (active).
For TBX19 (T-box transcription factor 19) the deposit lists z-score vs non-targeting control -1.82 (active).
